Here are results for one sequence from publication PMC7142922.

Tags and fusion partners may be left off the protein sequences shown.

This series addresses T1, TyrR (Escherichia coli DH5alpha) (UniProt P07604).
T1 sequence (looked up): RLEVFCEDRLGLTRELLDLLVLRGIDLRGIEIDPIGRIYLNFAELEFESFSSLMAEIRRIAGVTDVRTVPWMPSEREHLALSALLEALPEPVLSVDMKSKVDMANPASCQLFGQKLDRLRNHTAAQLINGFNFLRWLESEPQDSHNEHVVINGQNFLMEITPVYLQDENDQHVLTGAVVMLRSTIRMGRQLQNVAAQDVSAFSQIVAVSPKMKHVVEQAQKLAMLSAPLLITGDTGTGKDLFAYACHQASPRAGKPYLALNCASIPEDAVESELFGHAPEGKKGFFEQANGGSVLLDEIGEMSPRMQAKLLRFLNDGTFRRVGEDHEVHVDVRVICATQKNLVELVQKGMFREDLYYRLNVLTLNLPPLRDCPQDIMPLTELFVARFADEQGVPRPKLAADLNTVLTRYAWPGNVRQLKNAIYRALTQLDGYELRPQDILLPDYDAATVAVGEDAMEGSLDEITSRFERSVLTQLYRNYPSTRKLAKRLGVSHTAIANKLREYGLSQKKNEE
The series is described as follows: EMSA. As to conditions: 14 nM TyrR, 0.1 mM phenylalanine, 0.1 mM ATP, 3 mM Mg acetate, TyrR EMSA: 50 mM Tris-HCl pH 7.8, 50 mM NaCl, 0.1 mM EDTA, 0.1 mM DTT, 25 ug/mL BSA, 0.1 mM Phe, ~15 nM DNA, 37 C 30 min, recombinant protein, residues 2-513, protein details: N-terminal His6, probe letters rebuilt from the primers and the genome. In general terms: Mobility shift assays separate free from complexed probe on a gel.

Regarding “GAATTCATAAAACCTCGTGTATGGTGCGCTGTTTATTCATGCCGCGCTTCTTTTGAACGATGCAGTAGTGCGTGTGTAAGTTTGCAATTCCGCCTTTTGTATTGATTTATTTACAGTGAAGTTTTATTAAATATCACTATCACTCTTTTGTCTTGGTAAGAATAATGGTATGTGACTGCGAATGCACCTGCTTTGTGCAGGGGTGATGACGAGTTGCGTAAAAAGAAAGCACTTGTAAACCCTTTTAGCATTACTCACTTTATTTTGCATAGCATGTGATGTGCGGAGAAATCTTAGCAGTGAGCAGACCAATAAATAGAATATTCAGAACGGTGTTATTTTATTGACATCGTCAGCGGGGGAGGCGTTTAATTTATATTCGGATGTCGTAAAGCTTAA (double strand) [wt aroP-usp intergenic fragment (403 bp)]”, the binding result is recorded as “binds”.
